The results in this text go back to publication PMC12363188 (2025).

A word on the koff: it is the first-order rate constant of dissociation. The term Kd denotes the constant that tells how readily two partners part at equilibrium. Low readings indicate a tighter complex, high ones a looser complex.

In experiment [1] the target is T1, SARS-CoV-2 spike ectodomain (Se) (SARS-CoV-2, UniProt P0DTC2 14-1213). The experiment in a line: SPR. (In general: In SPR one partner is held on a chip, and binding of the other changes the refractive index at the surface.)
Experiment [2] addresses T1, SARS-CoV-2 spike ectodomain (Se). The experiment in a line: SPR. This is another data set of the same source.

B1: Rhinolophus pusillus bat ACE2 ectodomain (residues 18 to 615) (domain or fragment)
chain: QSITEDKAKKFLNDFNSEAEDLSYQSSLASWDYNTNISDENVQKMDEAGAKWSAFYEEQSKIAKNYPLEEIQTDIVKRQLQILQQSGSPVLSEDKSKRLNSILNAMSTIYSTGKVCKPNNPQECLLLEPGLDNIMGTSKDYHERLWAWEGWRAEVGKQLRPLYEEYVVLKNEMARGYHYEDYGDYWRRDYETEESSGPGYSRDQLMKDVDRIFTEIKPLYEHLHAYVRAKLMDTYPLHISPTGCLPAHLLGDMWGRFWTNLYPLTVPFGQKPNIDVTDEMVKQGWDANRIFKEAEKFFVSVGLPNMTEGFWNNSMLTEPGDGRKVVCHPTAWDLGKGDFRIKMCTKVTMEDFLTAHHEMGHIQYDMAYASQPYLLRNGANEGFHEAVGEVMSLSVATPKHLKTMGLLSPDFREDDETEINFLLKQALNIVGTLPFTYMLEKWRWMVFKGEIPKEEWMKKWWEMKREIVGVVEPVPHDETYCDPASLFHVANDYSFIRYYTRTIFEFQFHEALCRIAQHNGPLHKCDISNSTDAGKKLHQMLSVGKSQAWTKTLEDIVGSRNMDVGPLLRYFKPLYTWLQEQSRKSYVGWNTDWSPYSD
For the molecule B1, in experiment [1], the dissociation rate constant (koff) was 0.0112 s⁻¹. The same molecule displayed a Kd in experiment [2] of 26.9 nM.
